Assay results published in patent US20220033460A1, “IDENTIFICATION AND USE OF T CELL EPITOPES IN DESIGNING DIAGNOSTIC AND THERAPEUTIC APPROACHES FOR COVID-19” (priority 2020, published 2022).

B1: TCR_73: TCR to … / A*24:02 (protein)
TCR alpha: KDQVFQPSTVASSEGAVVEIFCNHSVSNAYNFFWYLHFPGCAPRLLVKGSKPSQQGRYNMTYERFSSSLLILQVREADAAVYYCAVEGNYGGSQGNLIFGKGTKLSVKPNIQNPDPAVYQLRDSKSSDKSVCLFTDFDSQTNVSQSKDSDVYITDKTVLDMRSMDFKSNSAVAWSNKSDFACANAFNNSIIPEDTFFPSPESSCDVKLVEKSFETDTNLNFQNLSVIGFRILLLKVAGFNLLMTLRLWSS
TCR beta: GITQSPKYLFRKEGQNVTLSCEQNLNHDAMYWYRQDPGQGLRLIYYSQIVNDFQKGDIAEGYSVSREKKESFPLTVTSAQKNPTAFYLCASSINPSSYNEQFFGPGTRLTVLEDLKNVFPPKVAVFEPSEAEISHTQKATLVCLATGFYPDHVELSWWVNGKEVHSGVSTDPQPLKEQPALNDSRYCLSSRLRVSATFWQNPRNHFRCQVQFYGLSENDEWTQDRAKPVTQIVSAEAWGRADCGFTSESYQQGVLSATILYEILLGKATLYAVLVSALVLMAMVKRKDSRG
B2: TCR_74: TCR to … / A*02:01 (protein)
TCR alpha: RKEVEQDPGPFNVPEGATVAFNCTYSNSASQSFFWYRQDCRKEPKLLMSVYSSGNEDGRFTAQLNRASQYISLLIRDSKLSDSATYLCVVNYDTDKLIFGTGTRLQVFPNIQNPDPAVYQLRDSKSSDKSVCLFTDFDSQTNVSQSKDSDVYITDKTVLDMRSMDFKSNSAVAWSNKSDFACANAFNNSIIPEDTFFPSPESSCDVKLVEKSFETDTNLNFQNLSVIGFRILLLKVAGFNLLMTLRLWSS
TCR beta: EPEVTQTPSHQVTQMGQEVILRCVPISNHLYFYWYRQILGQKVEFLVSFYNNEISEKSEIFDDQFSVERPDGSNFTLKIRSTKLEDSAMYFCATGGLNTGELFFGEGSRLTVLEDLKNVFPPKVAVFEPSEAEISHTQKATLVCLATGFYPDHVELSWWVNGKEVHSGVSTDPQPLKEQPALNDSRYCLSSRLRVSATFWQNPRNHFRCQVQFYGLSENDEWTQDRAKPVTQIVSAEAWGRADCGFTSESYQQGVLSATILYEILLGKATLYAVLVSALVLMAMVKRKDSRG
B3: TCR_79: TCR to … / A*02:01 (protein)
TCR alpha: QKEVEQNSGPLSVPEGAIASLNCTYSDRVSQSFFWYRQYSGKSPELIMSIYSNGDKEDGRFTAQLNKASQYVSLLIRDSQPSDSATYLCAVNRDDKIIFGKGTRLHILPNIQNPDPAVYQLRDSKSSDKSVCLFTDFDSQTNVSQSKDSDVYITDKTVLDMRSMDFKSNSAVAWSNKSDFACANAFNNSIIPEDTFFPSPESSCDVKLVEKSFETDTNLNFQNLSVIGFRILLLKVAGFNLLMTLRLWSS
TCR beta: GVSQDPRHKITKRGQNVTFRCDPISEHNRLYWYRQTLGQGPEFLTYFQNEAQLEKSRLLSDRFSAERPKGSFSTLEIQRTEQGDSAMYLCASSPDIEQFFGPGTRLTVLEDLKNVFPPKVAVFEPSEAEISHTQKATLVCLATGFYPDHVELSWWVNGKEVHSGVSTDPQPLKEQPALNDSRYCLSSRLRVSATFWQNPRNHFRCQVQFYGLSENDEWTQDRAKPVTQIVSAEAWGRADCGFTSESYQQGVLSATILYEILLGKATLYAVLVSALVLMAMVKRKDSRG
B4: TCR_81: TCR to … / A*02:01 (protein)
TCR alpha: AQKITQTQPGMFVQEKEAVTLDCTYDTSDQSYGLFWYKQPSSGEMIFLIYQGSYDEQNATEGRYSLNFQKARKSANLVISASQLGDSAMYFCAMRDSNSNSGYALNFGKGTSLLVTPHIQNPDPAVYQLRDSKSSDKSVCLFTDFDSQTNVSQSKDSDVYITDKTVLDMRSMDFKSNSAVAWSNKSDFACANAFNNSIIPEDTFFPSPESSCDVKLVEKSFETDTNLNFQNLSVIGFRILLLKVAGFNLLMTLRLWSS
TCR beta: DAEITQSPRHKITETGRQVTLACHQTWNHNNMFWYRQDLGHGLRLIHYSYGVQDTNKGEVSDGYSVSRSNTEDLPLTLESAASSQTSVYFCASSDGHQGLQETQYFGPGTRLLVLEDLKNVFPPKVAVFEPSEAEISHTQKATLVCLATGFYPDHVELSWWVNGKEVHSGVSTDPQPLKEQPALNDSRYCLSSRLRVSATFWQNPRNHFRCQVQFYGLSENDEWTQDRAKPVTQIVSAEAWGRADCGFTSESYQQGVLSATILYEILLGKATLYAVLVSALVLMAMVKRKDSRG
B5: TCR_83: TCR to … / A*24:02 (protein)
TCR alpha: QQKEKSDQQQVKQSPQSLIVQKGGISIINCAYENTAFDYFPWYQQFPGKGPALLIAIRPDVSEKKEGRFTISFNKSAKQFSLHIMDSQPGDSATYFCAASNRGGSEKLVFGKGTKLTVNPYIQNPDPAVYQLRDSKSSDKSVCLFTDFDSQTNVSQSKDSDVYITDKTVLDMRSMDFKSNSAVAWSNKSDFACANAFNNSIIPEDTFFPSPESSCDVKLVEKSFETDTNLNFQNLSVIGFRILLLKVAGFNLLMTLRLWSS
TCR beta: NAGVTQTPKFQVLKTGQSMTLQCAQDMNHEYMSWYRQDPGMGLRLIHYSVGAGITDQGEVPNGYNVSRSTTEDFPLRLLSAAPSQTSVYFCASSYHAGDRGFGYTFGSGTRLTVVEDLNKVFPPEVAVFEPSEAEISHTQKATLVCLATGFFPDHVELSWWVNGKEVHSGVSTDPQPLKEQPALNDSRYCLSSRLRVSATFWQNPRNHFRCQVQFYGLSENDEWTQDRAKPVTQIVSAEAWGRADCGFTSVSYQQGVLSATILYEILLGKATLYAVLVSALVLMAMVKRKDF
B6: TCR_84: TCR to … / A*02:01 (protein)
TCR alpha: QTVTQSQPEMSVQEAETVTLSCTYDTSESDYYLFWYKQPPSRQMILVIRQEAYKQQNATENRFSVNFQKAAKSFSLKISDSQLGDAAMYFCAYSGTASKLTFGTGTRLQVTLDIQNPDPAVYQLRDSKSSDKSVCLFTDFDSQTNVSQSKDSDVYITDKTVLDMRSMDFKSNSAVAWSNKSDFACANAFNNSIIPEDTFFPSPESSCDVKLVEKSFETDTNLNFQNLSVIGFRILLLKVAGFNLLMTLRLWSS
TCR beta: SAVISQKPSRDICQRGTSLTIQCQVDSQVTMMFWYRQQPGQSLTLIATANQGSEATYESGFVIDKFPISRPNLTFSTLTVSNMSPEDSSIYLCSVVDRGRFYNEQFFGPGTRLTVLEDLKNVFPPKVAVFEPSEAEISHTQKATLVCLATGFYPDHVELSWWVNGKEVHSGVSTDPQPLKEQPALNDSRYCLSSRLRVSATFWQNPRNHFRCQVQFYGLSENDEWTQDRAKPVTQIVSAEAWGRADCGFTSESYQQGVLSATILYEILLGKATLYAVLVSALVLMAMVKRKDSRG
B7: TCR_85: TCR to … / A*02:01 (protein)
TCR alpha: TGQNIDQPTEMTATEGAIVQINCTYQTSGFNGLFWYQQHAGEAPTFLSYNVLDGLEEKGRFSSFLSRSKGYSYLLLKELQMKDSASYLCAVRDLGGQKLLFARGTMLKVDLNIQNPDPAVYQLRDSKSSDKSVCLFTDFDSQTNVSQSKDSDVYITDKTVLDMRSMDFKSNSAVAWSNKSDFACANAFNNSIIPEDTFFPSPESSCDVKLVEKSFETDTNLNFQNLSVIGFRILLLKVAGFNLLMTLRLWSS
TCR beta: DAGVTQSPTHLIKTRGQQVTLRCSPKSGHDTVSWYQQALGQGPQFIFQYYEEEERQRGNFPDRFSGHQFPNYSSELNVNALLLGDSALYLCASSLGQGSPAGANVLTFGAGSRLTVLEDLKNVFPPKVAVFEPSEAEISHTQKATLVCLATGFYPDHVELSWWVNGKEVHSGVSTDPQPLKEQPALNDSRYCLSSRLRVSATFWQNPRNHFRCQVQFYGLSENDEWTQDRAKPVTQIVSAEAWGRADCGFTSESYQQGVLSATILYEILLGKATLYAVLVSALVLMAMVKRKDSRG
B8: TCR_87: TCR to … / A*02:01 (protein)
TCR alpha: RKEVEQDPGPFNVPEGATVAFNCTYSNSASQSFFWYRQDCRKEPKLLMSVYSSGNEDGRFTAQLNRASQYISLLIRDSKLSDSATYLCVVNQYNDMRFGAGTRLTVKPNIQNPDPAVYQLRDSKSSDKSVCLFTDFDSQTNVSQSKDSDVYITDKTVLDMRSMDFKSNSAVAWSNKSDFACANAFNNSIIPEDTFFPSPESSCDVKLVEKSFETDTNLNFQNLSVIGFRILLLKVAGFNLLMTLRLWSS
TCR beta: DAGVIQSPRHEVTEMGQEVTLRCKPISGHNSLFWYRQTMMRGLELLIYFNNNVPIDDSGMPEDRFSAKMPNASFSTLKIQPSEPRDSAVYFCASFQDQNTGELFFGEGSRLTVLEDLKNVFPPKVAVFEPSEAEISHTQKATLVCLATGFYPDHVELSWWVNGKEVHSGVSTDPQPLKEQPALNDSRYCLSSRLRVSATFWQNPRNHFRCQVQFYGLSENDEWTQDRAKPVTQIVSAEAWGRADCGFTSESYQQGVLSATILYEILLGKATLYAVLVSALVLMAMVKRKDSRG
B9: TCR_88: TCR to … / A*02:01 (protein)
TCR alpha: AQKITQTQPGMFVQEKEAVTLDCTYDTSDPSYGLFWYKQPSSGEMIFLIYQGSYDQQNATEGRYSLNFQKARKSANLVISASQLGDSAMYFCAMRRPGANNLFFGTGTRLTVIPYIQNPDPAVYQLRDSKSSDKSVCLFTDFDSQTNVSQSKDSDVYITDKTVLDMRSMDFKSNSAVAWSNKSDFACANAFNNSIIPEDTFFPSPESSCDVKLVEKSFETDTNLNFQNLSVIGFRILLLKVAGFNLLMTLRLWSS
TCR beta: ETGVTQTPRHLVMGMTNKKSLKCEQHLGHNAMYWYKQSAKKPLELMFVYSLEERVENNSVPSRFSPECPNSSHLFLHLHTLQPEDSALYLCASSAQEGRIEMNTEAFFGQGTRLTVVEDLNKVFPPEVAVFEPSEAEISHTQKATLVCLATGFFPDHVELSWWVNGKEVHSGVSTDPQPLKEQPALNDSRYCLSSRLRVSATFWQNPRNHFRCQVQFYGLSENDEWTQDRAKPVTQIVSAEAWGRADCGFTSVSYQQGVLSATILYEILLGKATLYAVLVSALVLMAMVKRKDF
B10: TCR_89: TCR to … / B*07:02 (protein)
TCR alpha: GENVEQHPSTLSVQEGDSAVIKCTYSDSASNYFPWYKQELGKGPQLIIDIRSNVGEKKDQRIAVTLNKTAKHFSLHITETQPEDSAVYFCAAPTNNNDMRFGAGTRLTVKPNIQNPDPAVYQLRDSKSSDKSVCLFTDFDSQTNVSQSKDSDVYITDKTVLDMRSMDFKSNSAVAWSNKSDFACANAFNNSIIPEDTFFPSPESSCDVKLVEKSFETDTNLNFQNLSVIGFRILLLKVAGFNLLMTLRLWSS
TCR beta: MSLGLLCCGVFSLLWAGPVNAGVTQTPKFRVLKTGQSMTLLCAQDMNHEYMYWYRQDPGMGLRLIHYSVGEGTTAKGEVPDGYNVSRLKKQNFLLGLESAAPSQTSVYFCASSYVTGASYEQYFGPGTRLTVTEDLKNVFPPKVAVFEPSEAEISHTQKATLVCLATGFYPDHVELSWWVNGKEVHSGVSTDPQPLKEQPALNDSRYCLSSRLRVSATFWQNPRNHFRCQVQFYGLSENDEWTQDRAKPVTQIVSAEAWGRADCGFTSESYQQGVLSATILYEILLGKATLYAVLVSALVLMAMVKRKDSRG

test system: CD8+ T cells; type: cell-based, human; settings: cells of the TCR clonotype specific for the epitope / HLA class I of the same line

| Molecule | No. of Cells |
| --- | --- |
| B1 | 2 |
| B2 | 2 |
| B3 | 2 |
| B4 | 2 |
| B5 | 2 |
| B6 | 2 |
| B7 | 2 |
| B8 | 2 |
| B9 | 2 |
| B10 | 2 |
